Anti-infective test results gathered from many reports (values: NIAID ChemDB through PubChem).

Shared fields: toxicity to cultured cells; cell line: HepG2.2.15; endpoint: CC50

An empty or dashed field is not shown. Conditions beyond the fields shown may differ between rows. CCn: concentration that lowers growth or viability of the cells by n%.

structure | read by | value
CCOC(=O)C1=C(CN2CC(F)(F)[C@@H]3[C@H]2CON3C[C@@H](F)C(C)(C)C(=O)O)NC(c2nccs2)=N[C@H]1c1ccc(F)c(F)c1F | WST / absorbance | >25 µM
CCOC(=O)CCCOC(=O)[C@@]1(C)CC[C@]2(C)CC[C@]3(C)C(=CC[C@@H]4[C@@]5(C)CC[C@H](O)C(C)(C)[C@@H]5CC[C@]43C)[C@@H]2C1 |  | 530 µM
C[C@H](C[C@H](OC(=O)c1ccc(Cl)cc1Cl)[C@@H](OC(=O)c1ccc(Cl)cc1Cl)C(C)(C)OC(=O)c1ccc(Cl)cc1Cl)C1=C2C[C@H](OC(=O)c3ccc(Cl)cc3Cl)[C@H]3[C@@]4(C)CCC(=O)C(C)(C)[C@@H]4CC[C@]3(C)[C@@]2(C)CC1 |  | >1000 µM
COC(=O)C1=C(CN2CC(F)(F)[C@@H]3[C@H]2CON3C[C@H](OC)C(C)(C)C(=O)O)NC(c2nccs2)=N[C@H]1c1ccc(F)cc1Cl | WST / absorbance | >100 µM
C[C@H](C[C@H](OC(=O)/C=C/c1ccccc1Cl)[C@@H](OC(=O)/C=C/c1ccccc1Cl)C(C)(C)OC(=O)/C=C/c1ccccc1Cl)C1=C2C[C@H](OC(=O)/C=C/c3ccccc3Cl)[C@H]3[C@@]4(C)CCC(=O)C(C)(C)[C@@H]4CC[C@]3(C)[C@@]2(C)CC1 |  | >1400 µM
COC(=O)[C@@]1(C)CC[C@]2(C)CC[C@]3(C)C(=CC(=O)C4[C@@]5(C)CC[C@H](O)C(C)(C)C5CC[C@]43C)C2C1 |  | >1740 µM
COC(=O)C1=C(CN2CC(F)(F)[C@@H]3[C@H]2CON3C[C@@H](F)C(C)(C)C(=O)O)NC(c2nccs2)=N[C@H]1c1ccc(F)c(F)c1C | WST / absorbance | 45.7 µM
C[C@H](C[C@H](OC(=O)c1ccc(Cl)cc1)[C@@H](OC(=O)c1ccc(Cl)cc1)C(C)(C)OC(=O)c1ccc(Cl)cc1)C1=C2C[C@H](OC(=O)c3ccc(Cl)cc3)[C@H]3[C@@]4(C)CCC(=O)C(C)(C)[C@@H]4CC[C@]3(C)[C@@]2(C)CC1 |  | >1400 µM
CCOCC(=O)O[C@@H](C[C@@H](C)C1=C2C[C@H](OC(=O)COCC)[C@H]3[C@@]4(C)CCC(=O)C(C)(C)[C@@H]4CC[C@]3(C)[C@@]2(C)CC1)[C@@H](OC(=O)COCC)C(C)(C)O |  | >2300 µM
CC1(C)[C@@H](O)CC[C@]2(C)[C@H]3C(=O)C=C4[C@@H]5C[C@@](C)(C(=O)OCc6ccccc6C#N)CC[C@]5(C)CC[C@@]4(C)[C@]3(C)CC[C@@H]12 |  | >1540 µM
CC(=O)OCC(=O)O[C@@H](C[C@@H](C)[C@]12CC[C@@]3(C)[C@@]1(C[C@H](OC(=O)COC(C)=O)[C@H]1[C@@]4(C)CCC(=O)C(C)(C)[C@@H]4CC[C@@]13C)O2)[C@@H](OC(=O)COC(C)=O)C(C)(C)O |  | 250 µM
COC(=O)C1=C(CN2CC(F)(F)[C@@H]3[C@H]2CON3C[C@H](OC)C(C)(C)C(=O)O)NC(c2ncoc2C)=N[C@H]1c1ccc(F)cc1Cl | WST / absorbance | >100 µM
CC(=O)OC1=CC[C@@]2(C)[C@@H](CC[C@@]3(C)[C@H]2[C@@H](OC(C)=O)CC2=C([C@H](C)C[C@H](OC(C)=O)[C@@H](OC(C)=O)C(C)(C)OC(C)=O)CC[C@@]23C)C1(C)C |  | >2100 µM
C[C@H](C[C@H](OC(=O)c1ccccc1I)[C@@H](OC(=O)c1ccccc1I)C(C)(C)O)C1=C2C[C@H](OC(=O)c3ccccc3I)[C@H]3[C@@]4(C)CCC(=O)C(C)(C)[C@@H]4CC[C@]3(C)[C@@]2(C)CC1 |  | >1500 µM
CC1(C)[C@@H](O)CC[C@]2(C)[C@H]3C(=O)C=C4[C@@H]5C[C@@](C)(C(=O)OCc6ccc(-n7cccn7)cc6)CC[C@]5(C)CC[C@@]4(C)[C@]3(C)CC[C@@H]12 |  | 1990 µM
CC(=O)OCC(=O)O[C@@H](C[C@@H](C)C1=C2C[C@H](OC(=O)COC(C)=O)[C@H]3[C@@]4(C)CCC(=O)C(C)(C)[C@@H]4CC[C@]3(C)[C@@]2(C)CC1)[C@@H](OC(=O)COC(C)=O)C(C)(C)O |  | 51 µM
CCCCC(=O)O[C@@H](C[C@@H](C)C1=C2C[C@H](OC(=O)CCCC)[C@H]3[C@@]4(C)CCC(=O)C(C)(C)[C@@H]4CC[C@]3(C)[C@@]2(C)CC1)[C@@H](OC(=O)CCCC)C(C)(C)OC(=O)CCCC |  | >1400 µM
CC1(C)[C@@H](O)CC[C@]2(C)[C@H]3C(=O)C=C4[C@@H]5C[C@@](C)(C(=O)OCc6ccccc6)CC[C@]5(C)CC[C@@]4(C)[C@]3(C)CC[C@@H]12 |  | 2010 µM
C[C@H](C[C@H](OC(=O)CN1C(=O)c2ccccc2C1=O)[C@@H](OC(=O)CN1C(=O)c2ccccc2C1=O)C(C)(C)O)C1=C2C[C@H](OC(=O)CN3C(=O)c4ccccc4C3=O)[C@H]3[C@@]4(C)CCC(=O)C(C)(C)[C@@H]4CC[C@]3(C)[C@@]2(C)CC1 |  | >1500 µM

Repeating the first 2 entries:

structure	read by	value
CCOC(=O)C1=C(CN2CC(F)(F)[C@@H]3[C@H]2CON3C[C@@H](F)C(C)(C)C(=O)O)NC(c2nccs2)=N[C@H]1c1ccc(F)c(F)c1F	WST / absorbance	>25 µM
CCOC(=O)CCCOC(=O)[C@@]1(C)CC[C@]2(C)CC[C@]3(C)C(=CC[C@@H]4[C@@]5(C)CC[C@H](O)C(C)(C)[C@@H]5CC[C@]43C)[C@@H]2C1		530 µM